Measured values: patent US8071797B2 (priority 2008, dated 2011)

These compounds were tested against HCV polymerase (NS5B570n-Con1) (Hepatitis C virus genotype 1b, UniProt Q9WMX2) (assay: HCV NS5B RNA polymerase activity assay). Conditions: read-out: IC50 NS5B polymerase assay; Table I.
Assay type: biochemical, HCV Con1 strain
Description: The enzymatic activity of HCV polymerase (NS5B570n-Con1) was measured as the incorporation of radiolabeled nucleotide monophosphates into acid insoluble RNA products. Unincorporated radiolabeled substrate was removed by filtration and scintillant was added to the washed and dried filter plate containing radiolabeled RNA product. The amount of RNA product generated by NS5B570-Con1 at the end of the reaction was directly proportional to the amount of light emitted by the scintillant.
The N-terminal 6-histidine tagged HCV polymerase, derived from HCV Con1 strain, genotype 1b (NS5B570n-Con1) contains a 21 amino acid deletion at the C-terminus relative to the full-length HCV polymerase and was purified from E. coli strain BL21 (DE) pLysS. The construct, containing the coding sequence of HCV NS5B Con1 (GenBank accession number AJ242654) was inserted into the plasmid construct pETI 7b, downstream of a T7 promoter expression cassette and transformed into E. coli. A single colony was grown overnight as a starter culture and later used inoculate 10 L of LB media supplemented with 100 μg/mL ampicillin at 37° C. Protein expression was induced by the addition of 0.25 mM isopropyl-β-D-thiogalactopyranoside (IPTG) when optical density at […] of the culture was between 0.6 and 0.8 and cells were harvested after 16 to 18 h at 30° C. NS5B570n-Con1 was purified to homogeneity using a three-step protocol including subsequent column chromatography on Ni-NTA, SP-Sepharose HP and Superdex 75 resins.
Each 50 μl enzymatic reaction contained 20 nM RNA template derived from the complementary sequence of the Internal Ribosome Entry Site (cIRES), 20 nM NS5B570n-Con1 enzyme, 0.5 μCi of tritiated UTP (Perkin Elmer catalog no. TRK-412; specific activity: 30 to 60 Ci/mmol; stock solution concentration from 7.5×10^-5 M to 20.6×10^-6 M), 1 μM each ATP, CTP, and GTP, 40 mM Tris-HCl pH 8.0, 40 mM NaCl, 4 mM DTT (dithiothreitol), 4 mM MgCl2, and 5 μl of compound serial diluted in DMSO. Reaction mixtures were assembled in 96-well filter plates (cat #MADVN0B, Millipore Co.) and incubated for 2 h at 30° C. Reactions were stopped by addition of 10% final (v/v) trichloroacetic acid and incubated for 40 min at 4° C. […]
The amount of light emitted from the scintillant was converted to counts per minute (CPM) on a Topcount® plate reader (Perkin-Elmer, Energy Range: Low, Efficiency Mode Normal, Count Time: 1 min, Background Subtract: none, Cross talk reduction: Off).
Data was analyzed in Excel® (Microsoft®) and ActivityBase® (idbsg). […] All data was expressed as a percentage of the positive control. […]

In order of falling IC50:
1. CNC(=O)c1c(-c2ccc(Oc3ccc(F)cc3)cc2)oc2cc(N(C)S(C)(=O)=O)c(C3CC3)cc12  44 nM
2. CNC(=O)c1c(-c2ccc(Nc3ccc(Cl)cc3)cc2)oc2cc(N(CCO)S(C)(=O)=O)c(OC)cc12 [Compound I-3]  37 nM
3. CNC(=O)c1c(-c2ccc(Oc3ccc(F)cc3)cc2)oc2cc(N(C)S(C)(=O)=O)c(C)cc12  29 nM
4. CNC(=O)c1c(-c2ccc(Oc3ccc(F)cc3)cc2)oc2cc(N(CCCC(=O)O)S(C)(=O)=O)c(C3CC3)cc12  4 nM
